The exact form of at least one protein or probe is not confirmed.
Biological target: T1, 6xHis-DnaA (Mtb) (Mycobacterium tuberculosis) (UniProt P9WNW3)
T1 sequence: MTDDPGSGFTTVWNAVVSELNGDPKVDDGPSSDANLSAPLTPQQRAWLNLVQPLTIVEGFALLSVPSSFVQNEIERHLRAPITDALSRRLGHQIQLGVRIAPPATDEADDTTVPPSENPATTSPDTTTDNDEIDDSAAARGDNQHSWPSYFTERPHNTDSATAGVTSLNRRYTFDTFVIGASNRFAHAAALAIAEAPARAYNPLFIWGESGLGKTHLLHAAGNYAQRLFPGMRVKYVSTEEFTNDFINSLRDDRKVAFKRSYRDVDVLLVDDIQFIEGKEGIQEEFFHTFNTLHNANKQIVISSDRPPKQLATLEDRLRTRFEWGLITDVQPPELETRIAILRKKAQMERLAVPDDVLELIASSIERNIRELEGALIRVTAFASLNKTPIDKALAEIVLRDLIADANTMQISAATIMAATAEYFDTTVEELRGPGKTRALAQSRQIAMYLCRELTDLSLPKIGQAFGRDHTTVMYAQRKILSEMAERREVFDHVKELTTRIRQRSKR
Experiment: EMSA
Details: recombinant protein; protein details: N-term 6xHis, 3C protease site; label: IRDye 800 at 5' end of forward primer; probe letters rebuilt from the primers and the genome

Sequence: CCCTACACGACGCTCTTCCCATCCGTCAGCGCTCCAAGCGCTAGCACGGCGTGTTCTTCCGACAACGTTCTTAAAAAAACTTCTCTCTCCCAGGTCACACCAGTCACAGAGATTGGCTGTGAGTGTCGCTGTGCACAAACCGCGCACAGACTCATACAGTCCCGGCGGTTCCGTTCACAACCCACGCCTCATCCCCACCGACCCAACACACACCCCACAGTCATCGCCACCGTCATCCACAACTCCGACCGACGTCGACCTGCACCAAGACCAGACTGTCCCCAAACTGCACACCCTCTAATACTGTTACCGAGATTTCTTCGTCGTTTGTTCTTGGAAAGACAGCGCTGGGGATCGTTCGCTGGATACCACCCGCATAACTGGCTCGTCGCGGTGGGTCAGAGGTCAATGATGAACTTTCAAGTTGACGTGAGAAGCTCTACGGTTGTTGTTCGACTGCTGTTGCGGCCGTCGTGGCGGGTCACGCGTCATGGGCATTCGTCGTTGGCAGTCCCCACGCTAGCGGGGCGCTAGCCACGGGATCGAACTCATCGTGAGGTGAAAGGGCGCAA (double strand) [oriC fragment]
- Kd: 70 nM
